IC50 of cytotoxicity on CXCR4+ HeLa cells after 72 h data for one substance are collected here from patent publication US20200239529A1.

For this experiment, the target named is CXCR4, human, P61073 1-352. Description: cell-based or functional assay.

T22-mRTA-H6 showed an IC50 of cytotoxicity on CXCR4+ HeLa cells after 72 h of 13 nM.
